Positions that govern dimerization of the HIV-1 5' RNA

From the data files of Ye et al. 2022, doi:10.1038/s41594-022-00746-2.

The 5' region of HIV-1 NL4-3 RNA (positions 1-437):
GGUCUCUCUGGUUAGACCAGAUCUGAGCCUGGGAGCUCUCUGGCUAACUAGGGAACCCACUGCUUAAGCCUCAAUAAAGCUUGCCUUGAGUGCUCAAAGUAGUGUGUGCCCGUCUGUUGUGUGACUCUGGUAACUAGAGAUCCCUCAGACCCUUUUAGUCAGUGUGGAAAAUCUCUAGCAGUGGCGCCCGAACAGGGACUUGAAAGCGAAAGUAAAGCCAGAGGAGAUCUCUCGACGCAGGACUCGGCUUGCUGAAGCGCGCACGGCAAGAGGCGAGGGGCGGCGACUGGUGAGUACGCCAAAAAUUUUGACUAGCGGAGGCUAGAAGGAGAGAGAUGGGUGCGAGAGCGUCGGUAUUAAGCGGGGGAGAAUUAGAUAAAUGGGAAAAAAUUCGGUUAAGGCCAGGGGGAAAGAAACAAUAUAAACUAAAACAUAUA

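Mutant RNA libraries with 1G, 2G or 3G starts, with or without cap, were folded at 37 °C for 30 min. High salt was 300 mM KCl and 5 mM MgCl2, low salt 40 mM KCl and 0.1 mM MgCl2; monomer and dimer were parted on a native gel. Mutation frequencies in the two bands give Kdimer.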

Scale: median log2 Kdimer over the changes at a position; positive = changes inhibit dimerization, negative = changes enhance it.
One numbering serves 1G, 2G and 3G.
A position is written with its base.

With A305 the assay gave 2G uncapped low-salt 0.09; 1G uncapped high-salt -0.15. U306 gave 2G uncapped low-salt 0.02; 1G uncapped high-salt 0.14. With U307 the assay gave 2G uncapped low-salt -0.11; 1G uncapped high-salt 0.16. U308 gave 2G uncapped low-salt -0.17; 1G uncapped high-salt 0.15. For U309 the result was 2G uncapped low-salt 0.04; 1G uncapped high-salt 0.02. G310 gave 2G uncapped low-salt 0.00; 1G uncapped high-salt -0.09. For A311 the result was 2G uncapped low-salt 0.87; 1G uncapped high-salt 0.55. C312 gave 2G uncapped low-salt 0.25; 1G uncapped high-salt 0.21.

With U313 the assay gave 2G uncapped low-salt 1.70; 1G uncapped high-salt 1.06. A314 gave 2G uncapped low-salt -0.22; 1G uncapped high-salt 0.42. With G315 the assay gave 2G uncapped low-salt 0.51; 1G uncapped high-salt 0.26. With C316 the assay gave 2G uncapped low-salt 0.62; 1G uncapped high-salt 0.07. For G317 the result was 2G uncapped low-salt 0.16; 1G uncapped high-salt 0.20. G318 gave 2G uncapped low-salt -0.07; 1G uncapped high-salt -0.01. For A319 the result was 2G uncapped low-salt 0.18; 1G uncapped high-salt 0.13. With G320 the assay gave 2G uncapped low-salt -0.24; 1G uncapped high-salt -0.07.

For G321 the result was 2G uncapped low-salt 0.82; 1G uncapped high-salt 0.55. With C322 the assay gave 2G uncapped low-salt 0.65; 1G uncapped high-salt 0.50. For U323 the result was 2G uncapped low-salt 0.47; 1G uncapped high-salt 0.69. A324 gave 2G uncapped low-salt 0.84; 1G uncapped high-salt 0.55. With G325 the assay gave 2G uncapped low-salt 0.71; 1G uncapped high-salt 0.48. With A326 the assay gave 2G uncapped low-salt -0.11; 1G uncapped high-salt 0.05. For A327 the result was 2G uncapped low-salt 0.19; 1G uncapped high-salt 0.20. G328 gave 2G uncapped low-salt -0.17; 1G uncapped high-salt 0.00.

For G329 the result was 2G uncapped low-salt -0.03; 1G uncapped high-salt 0.07. With A330 the assay gave 2G uncapped low-salt 0.28; 1G uncapped high-salt 0.21. G331 gave 2G uncapped low-salt -0.09; 1G uncapped high-salt 0.08. A332 read 2G uncapped low-salt 0.47; 1G uncapped high-salt 0.12. For G333 the result was 2G uncapped low-salt -0.20; 1G uncapped high-salt -0.04. A334 read 2G uncapped low-salt 0.49; 1G uncapped high-salt 0.14. G335 gave 2G uncapped low-salt 0.43; 1G uncapped high-salt 0.13. With A336 the assay gave 2G uncapped low-salt 0.51; 1G uncapped high-salt 0.08.

U337 gave 2G uncapped low-salt -0.01; 1G uncapped high-salt 0.12. G338 gave 2G uncapped low-salt 0.34; 1G uncapped high-salt 0.16. For G339 the result was 2G uncapped low-salt 0.58; 1G uncapped high-salt 0.29. G340 gave 2G uncapped low-salt 0.29; 1G uncapped high-salt 0.05. With U341 the assay gave 2G uncapped low-salt 0.35; 1G uncapped high-salt 0.03. G342 gave 2G uncapped low-salt 0.16; 1G uncapped high-salt 0.28. C343 gave 2G uncapped low-salt 0.29; 1G uncapped high-salt 0.10. G344 read 2G uncapped low-salt -0.18; 1G uncapped high-salt 0.07.

A345 read 2G uncapped low-salt 0.00; 1G uncapped high-salt 0.26. For G346 the result was 2G uncapped low-salt 0.17; 1G uncapped high-salt -0.05. A347 gave 2G uncapped low-salt 0.34; 1G uncapped high-salt 0.46. For G348 the result was 2G uncapped low-salt -0.24; 1G uncapped high-salt -0.33. C349 gave 2G uncapped low-salt -0.02; 1G uncapped high-salt -0.20.

The last 3 entries again:

position	2G uncapped low-salt	1G uncapped high-salt
A347	0.34	0.46
G348	-0.24	-0.33
C349	-0.02	-0.20